## Sequence variants of PSTVd loop 6 after infection

The measurements come from Wu et al. 2024 (doi:10.1371/journal.ppat.1012142).

The pool varies loop 6 of the PSTVd intermediate strain in the pattern UNNNCGNNNG; wild type is UGACCGCGAG (upper and lower strand joined, each 5' to 3', the first 5 letters being the upper strand, closing pairs included).

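A pool of all variants was put on leaves of three Nicotiana benthamiana plants. Samples came from the inoculated region at 5 days, the leaf margin at 10 and upper systemic leaves at 12.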

Numbers give reads per thousand; 0 = not seen among the reads, higher = more abundant. Each value is the mean of three plants. "Pool" is the share in the plasmid pool used as inoculum, on the same scale. The inoculated region was read from the minus strand, the other sites from the plus strand. IR is the inoculated region, LM the leaf margin, Sys the systemic leaves.

For UUCACGACCG (pool 0.366) the result was IR 0.0945; LM 0.00773; Sys 0. UGAACCAACG (pool 0.0131) gave IR 0; LM 0; Sys 0. UAAACUGCGG (pool 0.0131) read IR 0; LM 0; Sys 0. UUGCCAGCGG (pool 0.0131) gave IR 0; LM 0; Sys 0. With UAACCGGGCG (pool 0.118) the assay gave IR 0.626; LM 0.0591; Sys 0. UACCCGGUCG (pool 0.314) read IR 0.119; LM 0; Sys 0. UCUUCGACUG (pool 0.458) gave IR 0.131; LM 0; Sys 0. UCCCCGCUCG (pool 0.366) read IR 0.102; LM 0.00841; Sys 0.

With UUAACGUUAG (pool 0.314) the assay gave IR 0.725; LM 0.101; Sys 0. For UAGCCGACAG (pool 0.196) the result was IR 0.113; LM 0.00773; Sys 0. UUGGCGGCCG (pool 0.523) read IR 0.0596; LM 0; Sys 0.00684. For UCGCCGUCUG (pool 0.222) the result was IR 0.114; LM 0.00773; Sys 0. With UCACCGGAAG (pool 0.0784) the assay gave IR 0.142; LM 0.0232; Sys 0. UUGUCGUUCG (pool 0.314) read IR 0.126; LM 0.0247; Sys 0. With UCGACGGAUG (pool 0.170) the assay gave IR 0.0940; LM 0; Sys 0. For UAGCCGCUCG (pool 0.261) the result was IR 0.107; LM 0.00920; Sys 0.

For UGAUCGAGCG (pool 0.366) the result was IR 0.0959; LM 0.00920; Sys 0. UAGACGGCGG (pool 0.261) read IR 0.108; LM 0.0169; Sys 0. With UACACGUCGG (pool 0.248) the assay gave IR 0.0844; LM 0; Sys 0. UUGUCGGAGG (pool 0.170) read IR 0.0415; LM 0; Sys 0. UAUCCGUCUG (pool 0.288) gave IR 0.120; LM 0; Sys 0.00684. UGGACGGAAG (pool 0.209) read IR 0.102; LM 0.00773; Sys 0. With UAAUCGACCG (pool 0.209) the assay gave IR 0.0775; LM 0.00920; Sys 0. UAGCCGGGCG (pool 0.314) gave IR 0.0418; LM 0.00920; Sys 0.

UUUGCGCUAG (pool 0.118) read IR 0.0474; LM 0.0155; Sys 0. With UACACGCAUG (pool 0.105) the assay gave IR 0.0953; LM 0; Sys 0.

Excerpt, the final 3 entries:

{"sequence": "UAGCCGGGCG", "pool": "0.314", "IR": 0.0418, "LM": 0.00920, "Sys": 0}
{"sequence": "UUUGCGCUAG", "pool": "0.118", "IR": 0.0474, "LM": 0.0155, "Sys": 0}
{"sequence": "UACACGCAUG", "pool": "0.105", "IR": 0.0953, "LM": 0, "Sys": 0}

Sequences that differ at fixed positions probably stem from PCR or sequencing errors, and defective variants can be carried along by functional ones. Wild type was 20.7 per thousand in the pool and the most common sequence in every sample (inoculated region 195, 198, 203; leaf margin 629, 591, 734; systemic leaves 942, 870, 868). With 36,220-57,551 reads a sample, very low values are single reads.